A mixed list of measured activities; the numbers were collected in NIAID ChemDB.

Common to all: growth or infection tests; agent: HIV-1; endpoint: EC50

ECn is the concentration giving n% inhibition of infection, replication or growth.

CC(C)(C)OC(=O)Nc1ccccc1C(=O)N1CCN(C(=O)C(=O)c2c[nH]c3cccc(Cl)c23)CC1 ; cells: HeLa + HELA CD4+/CCR5 ; read by: luciferase ; result: ~10 µM
COCCCOc1ccc(-c2cnc(C)c([C@H](OC(C)(C)C)C(=O)O)c2N2CCC(C)(C)CC2)nc1 ; strain: NL4-3 ; cells: MT-2 ; read by: luminescence ; result: 0.0024 µM
Nc1ccccc1C(=O)N1CCN(C(=O)C(=O)c2c[nH]c3ccccc23)CC1 ; cells: HeLa + HELA CD4+/CCR5 ; read by: luciferase ; result: >10 µM
CC(C)C1=C2[C@H]3CC[C@@H]4[C@@]5(C)CC[C@H](OC(=O)[C@H]6C[C@@H](C(=O)O)C6(C)C)C(C)(C)[C@@H]5CC[C@@]4(C)[C@]3(C)CC[C@@]2(CC(=O)NCC(C)(C)NC(=O)c2ccc(S(C)(=O)=O)cc2)CC1=O ; strain: 92HT599 ; cells: MT-2 ; read by: p24 / ELISA ; result: <1 µM
Cc1cc2cn[nH]c2cc1NC(=O)COc1ccc(Cl)cc1C(=O)c1cccc(C#N)c1 ; strain: HXB2 ; mutations: RT-Y188C ; cells: HeLa + HELA CD4+ ; read by: β-galactosidase ; result: <0.01 µM
CC(C)C1=C2[C@H]3CC[C@@H]4[C@@]5(C)CC[C@H](OC(=O)[C@H]6C[C@@H](C(=O)O)C6(C)C)C(C)(C)[C@@H]5CC[C@@]4(C)[C@]3(C)CC[C@@]2(CC(=O)NCC2CCC2)CC1=O ; strain: 92HT599 ; cells: MT-2 ; read by: p24 / ELISA ; result: <1 µM
COC(=O)c1cccc2c(C(=O)C(=O)N3CCN(C(=O)c4ccccc4)C(C)C3)c[nH]c12 ; cells: HeLa + HELA CD4+/CCR5 ; read by: luciferase ; result: <10 µM
COCc1nc(Nc2ccc(C#N)cc2)nc(Nc2c(C)cc(/C=C/C#N)cc2C)c1C(=O)NCCN1CCOCC1 ; strain: MDR ; cells: MT4 CMV-EGFP ; result: 0.38 µM
CC(C)C1=C2[C@H]3CC[C@@H]4[C@@]5(C)CC[C@H](OC(=O)[C@H]6C[C@@H](C(=O)O)C6(C)C)C(C)(C)[C@@H]5CC[C@@]4(C)[C@]3(C)CC[C@@]2([C@@H](O)CNCc2ccc(N3CCN(C)CC3)cc2)CC1=O ; strain: 92HT599 ; cells: MT-2 ; read by: p24 / ELISA ; result: <1 µM
COCc1nc(Nc2ccc(C#N)cc2)nc(Nc2c(C)cc(/C=C/C#N)cc2C)c1C(=O)NCCc1ccccn1 ; strain: L1001+K103N ; cells: MT4 CMV-EGFP ; result: 0.0575 µM
C/C=C/CSc1cc(NC(=S)c2ccsc2C)ccc1Cl ; strain: NL4-3 ; mutations: RT-V179D ; cells: CEM + CEM-SS ; read by: p24 ; result: 0.7 µM
Cc1cc(S(N)(=O)=O)ccc1NC(=O)COc1ccc(Cl)cc1C(=O)c1cccc(C#N)c1 ; strain: HXB2 ; mutations: RT-Y188C ; cells: HeLa + HELA CD4+ ; read by: β-galactosidase ; result: <0.01 µM
Cc1ccc(OCCOc2ccc(-c3cnc(C)c([C@H](OC(C)(C)C)C(=O)O)c3N3CCC(C)(C)CC3)cn2)cc1 ; strain: NL4-3 ; cells: MT-2 ; read by: luminescence ; result: 0.0026 µM
COCc1nc(Nc2ccc(C#N)cc2)nc(Oc2c(C)cc(/C=C/C#N)cc2C)c1C(=O)NCc1ccncc1 ; strain: L1001+K103N ; cells: MT4 CMV-EGFP ; result: 0.0933 µM
O=C(C(=O)N1CCN(C(=O)c2ccccc2)CC1)c1c[nH]c2c(F)ccc(F)c12 ; cells: HeLa + HELA CD4+/CCR5 ; read by: luciferase ; result: <10 µM
COCc1nc(Nc2ccc(C#N)cc2)nc(Nc2c(C)cc(/C=C/C#N)cc2C)c1C(=O)NCc1cccnc1 ; strain: L1001+K103N ; cells: MT4 CMV-EGFP ; result: 0.0269 µM
CC(C)=CCOc1cc(NC(=S)c2ccsc2C)ccc1Cl ; strain: IIIB ; cells: CEMx174 + CEM ; read by: cytopathic effect / XTT ; result: 0.008 µM
CC(=O)c1c(C)nc(-c2ccccc2)nc1NC(=O)c1ccccc1 ; strain: 12AG ; cells: HeLa ; read by: GFP / fluorescence ; result: >50 µM
Cc1ncc(-c2ccc(OCCC3CCCCC3)cc2)c(N2CCC(C)(C)CC2)c1[C@H](OC(C)(C)C)C(=O)O ; strain: NL4-3 ; cells: MT-2 ; read by: luminescence ; result: 0.0036 µM
Cc1cc(S(N)(=O)=O)ccc1NC(=O)COc1ccc(Cl)cc1C(=O)c1cc(F)cc(C(F)(F)F)c1 ; strain: HXB2 ; mutations: RT-V106A Y181C ; cells: HeLa + HELA CD4+ ; read by: β-galactosidase ; result: 0.011–0.1 µM
Cc1cc(S(N)(=O)=O)ccc1NC(=O)COc1ccc(Cl)cc1C(=O)c1cc(F)cc(C(F)(F)F)c1 ; strain: IIIB ; mutations: RT-V108I ; cells: HELA MAGI ; read by: luciferase ; result: 0.0019 µM
Cc1cc(S(N)(=O)=O)ccc1NC(=O)COc1ccc(Cl)cc1C(=O)c1cc(F)cc(F)c1 ; strain: HXB2 ; mutations: RT-P225H ; cells: HeLa + HELA CD4+ ; read by: β-galactosidase ; result: <0.01 µM
COCc1nc(Nc2ccc(C#N)cc2)nc(Nc2c(C)cc(/C=C/C#N)cc2C)c1C(=O)NCCc1cccs1 ; strain: IIIB ; cells: MT4 CMV-EGFP ; result: 0.0145 µM
Cc1cccc(C)c1OCCN(C)c1ccc(-c2cnc(C)c([C@H](OC(C)(C)C)C(=O)O)c2N2CCC(C)(C)CC2)nc1 ; strain: NL4-3 ; cells: MT-2 ; read by: luminescence ; result: 0.0032 µM
Cc1cc(OCCCS(N)(=O)=O)ccc1NC(=O)COc1ccc(Cl)cc1C(=O)c1cc(F)cc(C(F)(F)F)c1 ; strain: HXB2 ; mutations: RT-G190A ; cells: HeLa + HELA CD4+ ; read by: β-galactosidase ; result: <0.01 µM
COCc1nc(Nc2ccc(C#N)cc2)nc(Nc2c(C)cc(/C=C/C#N)cc2C)c1C(=O)N1CCC(O)CC1 ; strain: L1001+K103N ; cells: MT4 CMV-EGFP ; result: 1.62 µM
CC(C)C1=C2[C@H]3CC[C@@H]4[C@@]5(C)CC[C@H](OC(=O)[C@H]6C[C@@H](C(=O)O)C6(C)C)C(C)(C)[C@@H]5CC[C@@]4(C)[C@]3(C)CC[C@@]2([C@@H](O)CNCC2(N)CCC2)CC1=O ; strain: 92HT599 ; cells: MT-2 ; read by: p24 / ELISA ; result: <1 µM
O=C(O)c1cc(-n2cccc2)ccc1Cl ; strain: 94UG103 X4R5 CLADE A ; cells: PBMC + MT-2 ; read by: p24 ; result: 35.77 µM
Cc1cc(C#N)cc(C(=O)c2cc(Cl)ccc2OCC(=O)Nc2cnc(S(N)(=O)=O)cc2C)c1 ; strain: HXB2 (RT-K103N Y181C) Recombinant ; mutations: RT-K103N Y181C ; cells: HeLa + HELA CD4+ ; read by: β-galactosidase ; result: <0.01 µM
CN1c2ccccc2C2C1C=C(C#N)C(=O)N2c1ccc([N+](=O)[O-])cc1 ; strain: F-93BR20 ; cells: HeLa ; read by: GFP / fluorescence ; result: 0.03 µM
CCCc1cc(=O)oc2c3c(c4c(c12)OC(C)(C)CC4)O[C@@H](C)[C@H](C)[C@@H]3O ; strain: ADA ; cells: MM + M/M ; read by: p24 ; result: 0.1 µM
CC(C)C1=C2[C@H]3CC[C@@H]4[C@@]5(C)CC[C@H](OC(=O)[C@H]6C[C@@H](C(=O)O)C6(C)C)C(C)(C)[C@@H]5CC[C@@]4(C)[C@]3(C)CC[C@@]2(CC(=O)NC[C@@H](CO)NC(=O)c2ccc(Cl)cc2)CC1=O ; strain: 92HT599 ; cells: MT-2 ; read by: p24 / ELISA ; result: <1 µM
Cc1cc2[nH]cnc2cc1NC(=O)COc1ccc(Cl)cc1C(=O)c1cc(F)cc(C(F)(F)F)c1 ; strain: HXB2 ; mutations: RT-L100I ; cells: HeLa + HELA CD4+ ; read by: β-galactosidase ; result: <0.01 µM
CC(C)C1=C2[C@H]3CC[C@@H]4[C@@]5(C)CC[C@H](OC(=O)[C@H]6C[C@@H](C(=O)O)C6(C)C)C(C)(C)[C@@H]5CC[C@@]4(C)[C@]3(C)CC[C@@]2([C@@H](O)CNCC(C)(C)NC(=O)c2ccc(F)cc2)CC1=O ; strain: 92HT599 ; cells: MT-2 ; read by: p24 / ELISA ; result: <1 µM
Cc1cccc2c(C(=O)C(=O)N3CCN(C(=O)c4ccccn4)C[C@H]3C)c[nH]c12 ; cells: HeLa + HELA CD4+/CCR5 ; read by: luciferase ; result: <10 µM
CCC(=O)c1ccc(F)c([C@@H]2C[C@@H]2NC(=O)Nc2ccc(C#N)cn2)c1O ; strain: LAI ; mutations: NNRTI-resistant (RT K101E/Y181C) ; cells: TZM-bl ; read by: β-galactosidase / luminescence ; result: 0.0355 µM
Cc1cc(C(=O)N2CCN(C(=O)C(=O)c3c[nH]c4c(F)ccc(F)c34)CC2)oc1C ; cells: HeLa + HELA CD4+/CCR5 ; read by: luciferase ; result: <10 µM
COCc1nc(Nc2ccc(C#N)cc2)nc(Nc2c(C)cc(/C=C/C#N)cc2C)c1C(=O)NC1CC1 ; strain: IIIB ; cells: MT4 CMV-EGFP ; result: 0.0024 µM
Cc1ncc(-c2cnc(O[C@@H](C)C3CC3)c(F)c2)c(N2CCC(C)(C)CC2)c1[C@H](OC(C)(C)C)C(=O)O ; strain: NL4-3 ; cells: MT-2 ; read by: luminescence ; result: 0.0078 µM
CCc1cccc2c(C(=O)C(=O)N3CCN(C(=O)c4ccccc4)C[C@@H]3C)c[nH]c12 ; cells: HeLa + HELA CD4+/CCR5 ; read by: luciferase ; result: <10 µM
Cc1ncc(-c2ccc(OC[C@H](C)Oc3ccccc3)nc2)c(N2CCC(C)(C)CC2)c1[C@H](OC(C)(C)C)C(=O)O ; strain: NL4-3 ; cells: MT-2 ; read by: luminescence ; result: 0.0023 µM
CC(C)C1=C2[C@H]3CC[C@@H]4[C@@]5(C)CC[C@H](OC(=O)[C@H]6C[C@@H](C(=O)O)C6(C)C)C(C)(C)[C@@H]5CC[C@@]4(C)[C@]3(C)CC[C@@]2([C@@H](O)CNC(=O)C(C)(C)NC(=O)c2ccc(N)nc2)CC1=O ; strain: 92HT599 ; cells: MT-2 ; read by: p24 / ELISA ; result: <1 µM
CC(C)=CCOc1cc(NC(=S)c2ccoc2C)ccc1Cl ; strain: Thiazolobenzimidazole-resistant (RT V108I) ; mutations: RT-V108I ; cells: CEM + CEM-SS ; read by: cytopathic effect / XTT ; result: 0.1 µM
CCCO[C@H](C(=O)O)c1c(C)ncc(-c2ccc(OCC3CCC3)cn2)c1N1CCC(C)(C)CC1 ; strain: NL4-3 ; cells: MT-2 ; read by: luminescence ; result: 0.0112 µM
CC(C)C1=C2[C@H]3CC[C@@H]4[C@@]5(C)CC[C@H](OC(=O)[C@H]6C[C@@H](C(=O)O)C6(C)C)C(C)(C)[C@@H]5CC[C@@]4(C)[C@]3(C)CC[C@@]2([C@@H](O)CNC(=O)C2(N)CNC2)CC1=O ; strain: 92HT599 ; cells: MT-2 ; read by: p24 / ELISA ; result: <1 µM
C[C@H]1CO[C@@H]2Cn3cc(C(=O)NCc4ccc(F)cc4F)c(=O)c(O)c3C(=O)N12 ; strain: NL4-3 ; mutations: M50I ; cells: CBMC ; read by: RT activity ; result: 0.00053 µM
CC(C)C1=C2[C@H]3CC[C@@H]4[C@@]5(C)CC[C@H](OC(=O)[C@@H]6C[C@H](C(=O)O)C6(C)C)C(C)(C)[C@@H]5CC[C@@]4(C)[C@]3(C)CC[C@@]2([C@@H](O)CNC(=O)c2ccc(Cl)cc2)CC1=O ; strain: 92HT599 ; cells: MT-2 ; read by: p24 / ELISA ; result: <1 µM
COc1ccc(C(=O)N2CCN(C(=O)C(=O)c3c[nH]c4cccc(F)c34)CC2)c(S)c1 ; cells: HeLa + HELA CD4+/CCR5 ; read by: luciferase ; result: <10 µM

The last 4 rows once more:

| structure | strain | mutations | cells | read by | result |
|---|---|---|---|---|---|
| CC(C)C1=C2[C@H]3CC[C@@H]4[C@@]5(C)CC[C@H](OC(=O)[C@H]6C[C@@H](C(=O)O)C6(C)C)C(C)(C)[C@@H]5CC[C@@]4(C)[C@]3(C)CC[C@@]2([C@@H](O)CNC(=O)C2(N)CNC2)CC1=O | 92HT599 |  | MT-2 | p24 / ELISA | <1 µM |
| C[C@H]1CO[C@@H]2Cn3cc(C(=O)NCc4ccc(F)cc4F)c(=O)c(O)c3C(=O)N12 | NL4-3 | M50I | CBMC | RT activity | 0.00053 µM |
| CC(C)C1=C2[C@H]3CC[C@@H]4[C@@]5(C)CC[C@H](OC(=O)[C@@H]6C[C@H](C(=O)O)C6(C)C)C(C)(C)[C@@H]5CC[C@@]4(C)[C@]3(C)CC[C@@]2([C@@H](O)CNC(=O)c2ccc(Cl)cc2)CC1=O | 92HT599 |  | MT-2 | p24 / ELISA | <1 µM |
| COc1ccc(C(=O)N2CCN(C(=O)C(=O)c3c[nH]c4cccc(F)c34)CC2)c(S)c1 |  |  | HeLa + HELA CD4+/CCR5 | luciferase | <10 µM |

Blank or dashed fields: not listed here. Rows are shuffled and stem from different studies. a–b is a range or a potency band.